Source: publication PMC3274548, “Toward New Therapeutics for Skin and Soft Tissue Infections: Propargyl-Linked Antifolates Are Potent Inhibitors of MRSA and Streptococcus pyogenes” (PLoS ONE, 2012)

Legend:
MRSA (S.aureus 13709) = assay: MIC, broth microdilution with Alamar Blue; type: cell-based, Staphylococcus aureus; conditions: IC50 (MCF10)/MIC (pathogen), both values in µM
Streptococcus pyogenes = assay: MIC, broth microdilution with Alamar Blue; type: cell-based; conditions: IC50 (MCF10)/MIC (pathogen), both values in µM
Method: Stock solutions of standard antibiotics and test compounds were made at 50 mM in DMSO. […] For susceptibility testing, 10 µL of glycerol stock was suspended in a 10 mL shake flask culture of chemically defined Isosensitest broth (Oxoid) supplemented with 2% w/v glucose. A sample of the shake flask culture was diluted to 1×10^6 cells/mL in media and added to 96-well test plates (100 µL per well) containing test compounds dispensed in DMSO (2 µL) using serial two-fold dilutions. After an incubation period (30°C) determined from the strain specific doubling time, a 0.03% w/v aqueous solution of resazurin (10 µL) was added and the plates were allowed to incubate; each well was then scored for dye reduction.

[1] = tested on: Staphylococcus aureus subsp. aureus ATCC 44300; assay: MIC and MBC determination (microdilution, plating on Isosensitest agar); type: cell-based; conditions: strain ATCC 44300
Text: MBC was defined as the lowest concentration of inhibitor preventing colony growth on agar plates.

Compound	Selectivity MRSA (MRSA (S.aureus 13709))	Selectivity S. pyogenes (Streptococcus pyogenes)	Ratio MBC/MIC [1]
CCc1nc(N)nc(N)c1C#CCc1cccc(-c2ccccc2)c1 [Compound 8]	16	16	–
CCc1nc(N)nc(N)c1C#CCc1cc(OC)cc(-c2ccccc2)c1 [Compound 9]	398	398	–
COc1cc(-c2ccncc2)cc(C(C)C#Cc2c(C)nc(N)nc2N)c1 (centres unmarked) [Compound 24]	–	–	1.0
